Test in all cases: cell-based or functional assay
The target in assay [1] is SARS-CoV-2 Omicron BA.4.6 spike protein, Monogram pseudovirus (SARS-CoV-2).
Assay [2] addresses SARS-CoV-2 Omicron BA.4/5 spike protein, Monogram pseudovirus (SARS-CoV-2).
The target of assay [3] is SARS-CoV-2 Omicron BF.7 spike protein, Monogram pseudovirus (SARS-CoV-2).
Assay [4] addresses SARS-CoV-2 Omicron BQ.1 spike protein, Monogram pseudovirus (SARS-CoV-2).
Assay [5] deals with SARS-CoV-2 Delta spike protein (authentic virus / MLV pseudovirus) (SARS-CoV-2).
For assay [6], the target named is SARS-CoV-2 Omicron BA.1 spike protein (authentic virus / MLV pseudovirus) (SARS-CoV-2).
The target in assay [7] is SARS-CoV-2 Omicron BA.2 spike protein (authentic virus / MLV pseudovirus) (SARS-CoV-2).
For assay [8], the target named is SARS-CoV-2 Omicron BA.4.1 spike protein (authentic virus) (SARS-CoV-2).
Assay [9] concerns the target SARS-CoV-2 Wild-type (D614G) spike glycoprotein (SARS-CoV-2) (UniProt P0DTC2).
The target in assay [10] is SARS-CoV-2 Omicron BA.1 spike protein, Monogram pseudovirus (SARS-CoV-2).
Assay [11] has as its target SARS-CoV-2 Omicron BA.2.75 spike glycoprotein (lentivirus-based pseudovirus) (SARS-CoV-2).
The target of assay [12] is SARS-CoV-2 Omicron BA.5 spike glycoprotein (lentivirus-based pseudovirus) (SARS-CoV-2).
Assay [13] addresses SARS-CoV-2 Omicron BQ.1.1 spike protein, Monogram pseudovirus (SARS-CoV-2).
Assay [14] addresses SARS-CoV-2 Wild-type (D614G) spike glycoprotein (SARS-CoV-2) (UniProt P0DTC2). This is another data set of the same source.

Where two headings read alike, the source gives them in different places.

For the substance VYD222 (antibody), the IC50, PhenoSense pseudovirus neutralization in [1] stood at 0.0292 µg/mL; in assay [2], 0.0297 µg/mL; in [3], 0.0727 µg/mL; in assay [4], 0.165 µg/mL.

For LY-CoV1404 (antibody), the IC50 fold-change relative to D614G reference strain is 1.28 fold in [5]; 0.18 fold in assay [6]; 0.48 fold in [7]; 1.22 fold in assay [8]; 1 fold in assay [9]. The IC90 fold-change relative to D614G reference strain in assay [5] is 1.07 fold; in assay [6], 1.68 fold; in assay [7], 0.77 fold; in [8], 1.11 fold; in [9], 1 fold.

With ADI-58125 (antibody), the IC50 fold-change relative to D614G reference strain in assay [5] was 0.95 fold; in assay [6], above 97 fold; in assay [7], above 97 fold; in [8], above 97 fold; in [9] it was 1 fold. For the same substance, the IC90 fold-change relative to D614G reference strain in assay [5] is 0.81 fold; in assay [6], above 26 fold; in assay [7] it was above 26 fold; in [8], above 26 fold; in assay [9], 1 fold.

VYD224 (antibody): the IC50, PhenoSense pseudovirus neutralization in assay [10] stood at 0.0013 µg/mL; in [1], 0.267 µg/mL; in assay [2], 0.4 µg/mL; in [3] it was 0.281 µg/mL; in assay [4], 0.44 µg/mL; in [13], 0.809 µg/mL. Further, the IC50 fold-change relative to D614G reference strain in assay [11] was 0.3 fold; in assay [12] it was 2.7 fold; in [14] it was 1 fold; in assay [5], 0.58 fold; in [6], 0.95 fold; in assay [7], 1.56 fold. Besides, the IC50 fold-change relative to D614G reference strain in assay [8] turned out to be 12.1 fold; in [9] it was 1 fold. The IC90 fold-change relative to D614G reference strain in [5] was determined as 0.38 fold; in [6] it was 0.61 fold; in [7], 1.45 fold; in assay [8], 9.67 fold; in [9], 1 fold.

With VYD223 (antibody), the IC50 fold-change relative to D614G reference strain is 1.12 fold in [5]; 1.26 fold in [6]; 1.39 fold in assay [7]; 5.35 fold in assay [8]; 1 fold in assay [9]. Further, the IC90 fold-change relative to D614G reference strain was 4.35 fold in assay [5]; 4.91 fold in [6]; 6.12 fold in assay [7]; 31.7 fold in [8]; 1 fold in assay [9].
